Test results reported in patent US20110274702A1 (INSTITUTE FOR RESEARCH IN BIOMEDICINE, published 2011).

How the values were obtained:
H5-HA = H5-HA (influenza A virus, H5 subtype); experiment: ELISA on coated recombinant HA
H7-HA = H7-HA (influenza A virus, H7 subtype); experiment: ELISA on coated recombinant HA

B1: FI6 variant 2 (antibody, V domains shown)
VH: QVQLVQSGGGVVQPGRSLRLSCVASGFTFSTYAMHWVRQAPGRGLEWVAVISYDGNYKYYADSVKGRFSISRDNSNNTLHLEMNTLRTEDTALYYCAKDSQLRSLLYFEWLSQGYFDPWGQGTLVTVTS
VL: DIQMTQSPDSLAVSLGARATINCKSSQSVTFNYKNYLAWYQQKPGQPPKVLIYWASARESGVPDRFSGSGSGTDFTLTISSLQAEDVAVYYCQQHYRTPPTFGQGTKVEIK
B1 was tested. Which EC50 (H5-HA) did it give?
The EC50 was 0.0145 µg/mL.

And the EC50 (H7-HA)?
Its EC50 is 0.0314 µg/mL.
